From patent publication US7078403B1, “Antiviral agents” (Biota Scientific Management Pty Ltd., priority 1999, dated 2006)

Tested on: Enterovirus 70
Test: Activity on Enterovirus 70 in mammalian cell culture assay
Format: cell-based
Settings: CC50 divided by EC50

**Q.** Which “Activity on Enterovirus 70 SI” value does the source give for CCO/N=C/c1ccc(OCCC2CCN(c3ccc(Cl)nn3)CC2)cc1 [Compound 1, 4-{2-[1-(6-Chloro-3-pyridazinyl)4-piperidinyl]ethoxy}benzaldehyde O-ethyloxime] here?
**A.** The value was over 1582.

**Q.** With CC(C)S(=O)(=O)n1c(N)nc2ccc(/C(=N/O)c3ccccc3)cc21 [Enviroxime] as the compound, how does the “Activity on Enterovirus 70 SI” value read?
**A.** Its value is 19.35.

Tested on: Coxsackie A21
Test: Activity on Coxsackie A21 in mammalian cell culture assay
Format: cell-based
Settings: CC50 divided by EC50

**Q.** With CCO/N=C/c1ccc(OCCC2CCN(c3ccc(Cl)nn3)CC2)cc1 [Compound 1, 4-{2-[1-(6-Chloro-3-pyridazinyl)4-piperidinyl]ethoxy}benzaldehyde O-ethyloxime] as the compound, how does the “Activity on Coxsackie A21 SI” value read?
**A.** The value was over 320000.

**Q.** How did the “Activity on Coxsackie A21 SI” value turn out when CC(C)S(=O)(=O)n1c(N)nc2ccc(/C(=N/O)c3ccccc3)cc21 [Enviroxime] was run?
**A.** Its value is 24.25.

Tested on: Rhinovirus Type 14
Test: not given
Format: cell-based, human rhinovirus
Settings: CC50 divided by EC50

**Q.** Which “Activity on Rhinovirus Type 14 SI” value does the source give for CCON=Cc1ccc(OCCC2CCN(c3ccc(Cl)nn3)CC2)c(OC)c1 [Compound 5] here?
**A.** Its value is over 13.

**Q.** CON=Cc1ccc(OCCC2CCN(c3ccc(C)nn3)CC2)cc1 [Compound 7] was tested. Which “Activity on Rhinovirus Type 14 SI” value did it give?
**A.** The value was over 14.

**Q.** With CON=Cc1ccc(OCCC2CCN(c3ccc(Cl)nn3)CC2)cc1 [Compound 8] as the compound, how does the “Activity on Rhinovirus Type 14 SI” value read?
**A.** Its value is over 13.

**Q.** How did the “Activity on Rhinovirus Type 14 SI” value turn out when CCCON=Cc1ccc(OCCC2CCN(c3ccc(Cl)nn3)CC2)cc1 [Compound 11] was run?
**A.** The value was over 13.

**Q.** C=CCON=Cc1ccc(OCCC2CCN(c3ccc(Cl)nn3)CC2)cc1 [Compound 13] was tested. Which “Activity on Rhinovirus Type 14 SI” value did it give?
**A.** The value was over 12.

**Q.** How did the “Activity on Rhinovirus Type 14 SI” value turn out when CON=Cc1ccc(OCCC2CCN(c3ccc(Cl)nn3)CC2)c(OC)c1 [Compound 33] was run?
**A.** The value was over 7.

**Q.** CCON=Cc1ccc(OCCC2CCN(c3ccc(Cl)nn3)CC2)c(C)c1 [Compound 42] was tested. Which “Activity on Rhinovirus Type 14 SI” value did it give?
**A.** The value was over 9.

**Q.** Which “Activity on Rhinovirus Type 14 SI” value does the source give for CON=Cc1ccc(OCCC2CCN(c3ccc(Cl)nn3)CC2)c(C)c1 [Compound 44] here?
**A.** Its value is over 5.

**Q.** With CCON=Cc1ccc(OCCC2CCN(c3ccc(C)nn3)CC2)c(C)c1 [Compound 51] as the compound, how does the “Activity on Rhinovirus Type 14 SI” value read?
**A.** Its value is over 10.

**Q.** CON=Cc1ccc(OCCC2CCN(c3ccc(C)nn3)CC2)c(C)c1 [Compound 52] was tested. Which “Activity on Rhinovirus Type 14 SI” value did it give?
**A.** The value was over 18.

**Q.** How did the “Activity on Rhinovirus Type 14 SI” value turn out when CCON=Cc1ccc(OCCC2CCN(c3ccc(C)nn3)CC2)c(O)c1 [Compound 146] was run?
**A.** Its value is over 11.

**Q.** CCON=Cc1ccc(OCCC2CCN(c3nnc(C(F)(F)F)s3)CC2)cc1 [Compound 154] was tested. Which “Activity on Rhinovirus Type 14 SI” value did it give?
**A.** The value was over 9.

**Q.** For CCO/N=C/c1csc(OCCC2CCN(c3ccc(C)nn3)CC2)n1 [Compound 155, 2-(1-(6 methyl-3-pyridazinyl)-4-piperidinylethoxy)-thiazole-4-carboxaldehyde O-ethyl oxime], which “Activity on Rhinovirus Type 14 SI” value is on record?
**A.** The value was over 36.

**Q.** For CCO/N=C/c1ccc(OCCC2CCN(c3nnc(C)s3)CC2)cc1 [Compound 158], which “Activity on Rhinovirus Type 14 SI” value is on record?
**A.** The value was over 526.

**Q.** How did the “Activity on Rhinovirus Type 14 SI” value turn out when CCON=Cc1ccc(OCCC2CCN(c3cnc(Cl)cn3)CC2)cc1 [Compound 160] was run?
**A.** The value was over 9.

**Q.** With CCO/N=C/c1ccc(OCCCCCN(C)c2ccc(Cl)nn2)cc1 [Compound 161] as the compound, how does the “Activity on Rhinovirus Type 14 SI” value read?
**A.** The value was over 14.

**Q.** For CCO/N=C/c1c(C)cc(OCCC2CCN(c3ccc(C)nn3)CC2)cc1C [Compound 185], which “Activity on Rhinovirus Type 14 SI” value is on record?
**A.** The value was over 14.

**Q.** CO/N=C/c1c(C)cc(OCCC2CCN(c3ccc(C)nn3)CC2)cc1C [Compound 186] was tested. Which “Activity on Rhinovirus Type 14 SI” value did it give?
**A.** The value was over 28.

**Q.** How did the “Activity on Rhinovirus Type 14 SI” value turn out when CCO/N=C/c1ccc(OCCC2CCN(c3ccc(C)nn3)CC2)cc1OC [Compound 187] was run?
**A.** The value was over 97.

**Q.** How did the “Activity on Rhinovirus Type 14 SI” value turn out when CCO/N=C/c1ccc(OCCC2CCN(c3ccc(C)nn3)CC2)cc1C [Compound 188] was run?
**A.** Its value is over 311.

**Q.** For CO/N=C/c1ccc(OCCC2CCN(c3ccc(C)nn3)CC2)cc1C [Compound 189], which “Activity on Rhinovirus Type 14 SI” value is on record?
**A.** Its value is over 872.

**Q.** How did the “Activity on Rhinovirus Type 14 SI” value turn out when CCON=Cc1cc(C)c(OCCC2CCN(c3ccc(C)nn3)CC2)cc1C [Compound 190] was run?
**A.** The value was over 16.

**Q.** With CON=Cc1cc(C)c(OCCC2CCN(c3ccc(C)nn3)CC2)cc1C [Compound 191] as the compound, how does the “Activity on Rhinovirus Type 14 SI” value read?
**A.** The value was over 39.

**Q.** How did the “Activity on Rhinovirus Type 14 SI” value turn out when CCON=Cc1ccc(OCCC2CCN(c3ccc(C)nn3)CC2)c(C)c1C [Compound 192] was run?
**A.** The value was over 38.

**Q.** How did the “Activity on Rhinovirus Type 14 SI” value turn out when CON=Cc1ccc(OCCC2CCN(c3ccc(C)nn3)CC2)c(C)c1C [Compound 193] was run?
**A.** Its value is over 32.

**Q.** For CCO/N=C/c1ccc(OCCCCN(C)c2ccc(Cl)nn2)cc1 [Compound 195], which “Activity on Rhinovirus Type 14 SI” value is on record?
**A.** Its value is over 13.

**Q.** Which “Activity on Rhinovirus Type 14 SI” value does the source give for CCON=Cc1ccc(OCCC2CCN(c3cccc(C)n3)CC2)cc1 [Compound 196] here?
**A.** Its value is over 23.

**Q.** For CO/N=C/c1ccc(OCCC2CCN(c3cncc(Cl)n3)CC2)cc1 [Compound 199], which “Activity on Rhinovirus Type 14 SI” value is on record?
**A.** Its value is over 2.5.

**Q.** Which “Activity on Rhinovirus Type 14 SI” value does the source give for CO/N=C/c1ccc(OCCC2CCN(c3nc4ccccc4o3)CC2)cc1 [Compound 200] here?
**A.** Its value is over 4.8.

**Q.** With CCO/N=C/c1ccc(OCCC2CCN(c3nc4ccccc4o3)CC2)cc1 [Compound 201] as the compound, how does the “Activity on Rhinovirus Type 14 SI” value read?
**A.** The value was over 3.8.

**Q.** Which “Activity on Rhinovirus Type 14 SI” value does the source give for CO/N=C/c1ccc(OCCC2CCN(c3nc(OC)nc(OC)n3)CC2)cc1 [Compound 202] here?
**A.** Its value is over 1.7.

**Q.** For CCO/N=C/c1ccc(OCCC2CCN(c3nc(OC)nc(OC)n3)CC2)cc1 [Compound 203], which “Activity on Rhinovirus Type 14 SI” value is on record?
**A.** The value was over 1.7.

**Q.** Which “Activity on Rhinovirus Type 14 SI” value does the source give for CCc1cnc(N2CCC(CCOc3ccc(/C=N/OC)cc3)CC2)nc1 [Compound 204] here?
**A.** The value was over 1.8.

**Q.** With CCO/N=C/c1ccc(OCCC2CCN(c3ncc(CC)cn3)CC2)cc1 [Compound 205] as the compound, how does the “Activity on Rhinovirus Type 14 SI” value read?
**A.** Its value is over 1.6.

**Q.** Which “Activity on Rhinovirus Type 14 SI” value does the source give for CO/N=C/c1ccc(OCCC2CCN(c3nc4ccccc4s3)CC2)cc1 [Compound 206] here?
**A.** The value was over 4.3.

**Q.** How did the “Activity on Rhinovirus Type 14 SI” value turn out when CCO/N=C/c1ccc(OCCCCCOc2ccc(Cl)nn2)cc1 [Compound 209] was run?
**A.** The value was over 31.

**Q.** Which “Activity on Rhinovirus Type 14 SI” value does the source give for CCO/N=C/c1ccc(OCCC2CCN(c3cc(C)c(Cl)nn3)CC2)cc1 [Compound 212] here?
**A.** The value was over 46.

**Q.** How did the “Activity on Rhinovirus Type 14 SI” value turn out when Cc1cc(CCCOc2c(C)cc(-c3noc(C(F)(F)F)n3)cc2C)on1 [Pleconaril, reference compound] was run?
**A.** The value was over 1.6.
